Data from the supplement of paper PMC9931576.
Human monoclonal antibodies against the spike receptor-binding domain (heavy:light variable regions). IC50 against pseudoviruses bearing the spike of naturally observed variants; lower = stronger; >10 µg/ml means not reached at the top dose. No active / inactive call. The stated detection limit is 0.0005 µg/ml; values near or below 0.001 µg/ml lie at the floor of the assay.

B1: BD55-3637 (protein)
chain 1: QVQLVESGGGVVQPGRSLRLSCAASGFTFSTYGMHWVRQAPGKGLQWVAFISDGGNKKYFADSVKGRFTISRDNSKNTLYLQMSSLRTEDTAVYYCAKERYCAGGDCSNPFFDYWGQGTLVTVSS
chain 2: DIQVTQSPSSLSASVGDRVTITCRASQSISSSLNWYQHKPGNAPKLLIYAASSLQSGVPSRFSGSGSGTDFILTISSLQPEDFATYYCQQSHSFPRTFGQGTKVEFR
B2: BD55-3451 (protein)
chain 1: QVQLVQSGTEVKRPGSSVKVSCKASGGTFSTYTINWVRQAPGQGLEWMGRIIPMLNIPKYAQKFQDRVTITADRSTNTAYMELRSLRYDDTAVYYCVRAEGTGWLGYAFDIWGQGTMVTVSS
chain 2: QSALTQPASVSGSPGQSITISCTGTSSDLGGSVYVSWYQQHPGQAPKLIIYDVSNRPSGVSHRFSGSKSGNTASLTISGLQADDEADYYCTSYTTTTALVVFGGGTKLTVL
B3: BD55-3684 (protein)
chain 1: EVQLVESGGGLVKPGGSLRLSCAASGFTFSSYSMTWVRQAPGKGLEWVSSISSSSDYIYYTDSMEGRFTISRDNAKNSLYLQMNSLRAEDTAVYYCATNREMATTEWGYFDNWGQGTLVTVSS
chain 2: EIVMTQSPATLSVSPGERATLSCRASQSASSNLAWYQQKPGQAPRLLIYDASTRATGIPARFSGSGSGTEFTLTISSLQSEDFAVYYCQQYYIWPPEFTFGPGTKVDIK
B4: BD55-4281 (protein)
chain 1: QVQLVQSGAELKKPGSSVRVSCKAPGGSFSSYTISWVRQAPGQGLEWMGRVIPILDRSIYAQNFQGRVTITADKSTTTAYMEISSLRSDDTAVYYCARAEGTGWVGYAFDIWGQGTLVTVSS
chain 2: QSALTQPASVSGSPGQSITISCTGPISDVVTYDYVSWYQQRPGKAPRLMIYDVSQRPSGVSDRFSGSKSGNTASLTISGLQAEDEAHYYCTSYTRTTTLVVFGGGTKVTVV
B5: BD55-4286 (protein)
chain 1: EVQLVESGGGLVQPGGSLRLSCAASGFTFSRYPMHWVRQAPGMGLEYVSSITSNGVGRFYADSVKGRFTISRDNSKNTLYLQVGSLGAEDMAVYYCAREGRDTHGLYLDFWGQGTLVTVSS
chain 2: DIQMTQSPSSLSASVGDRVTITCRASQSINNYLNWYQQKPGKAPKLLIFATSTLHSGVPSRFSGSGSGTDFSLTITSLQPEDFATYYCQQSYITPTYTFGQGTKLEIK
B6: BD55-3372 (protein)
chain 1: EVHLVESGGGLVKPGGSLRLSCAASGFTFSNYAMNWVRQAPGKGLQWVSSITGSSSFIFYADSVKGRFTIVRDNAQNSLYLQMNSLRDEDTAVYYCARERDDYDTRLDWGQGTLVTVSS
chain 2: QPMLTQPPSVSGAPGQTVTISCVGSSSNIGAGYEVHWYQQLPGTAPKRLLSGNSDRPSGVPDRFSGSKSGTSASLAITGLQADDEADYYCQSYDSSLSLSAVVFGGGTKLTVL
B7: BD55-3721 (protein)
chain 1: QVQQQQWGAGLLKPSETLSLTCAVYGGSFSDYYWSWVRQPPGKGLEWIGEIIQSGSTNYNPSLKSRVTISVDTSKNQFSLKLSSVTAADTAVYYCARGRLVRGITWVPLDYWGQGALVTVSS
chain 2: DIQMTQSPSTLSTSVGDRVTITCRASQSVSSWLAWYQQKPGKAPKLLIYKASSLEDGVPSRFSGSGSGTEFTLTISSLQPDDFATYYCQQYNSYPRTFGHGTKVEIK
B8: BD55-3152 (protein)
chain 1: QVQLVQSGAEVKKPGASVIVSCKASGYRFISHYIHWVRQAPGQGLEWMGKIDPSGRGTTYAQKLQGRVSVTRDTSTSSVYMALSGLRSDDTAVYYCARDRFPLSDPYVWGSPLGGLDVWGQGTTVIVSS
chain 2: SYDLTQPPSVSVSPGQTARITCSGDALPSQYVYWYQQRPGQAPVLVMYKDSERPPGIPERFSGSTSGTTATLTITGVQAEDEADYYCQSADASTTYHVFGGGTKVTVV
B9: BD55-3561 (protein)
chain 1: QVQLVESGGGVVQPGRSLRLSCAVSGFTFSDYGMHWVRQAPGKGMEWVAVIWFDGTNKYYADSVKGRFTISRDNSKNTLYLEMNSLRAEDTAVYYCTKSWVYKGTPYYFDYWGQGTLVTVSA
chain 2: EIVLTQSPVTLSLSPGERATLSCRASQNIRSSLAWYQHKPGQAPRLLIYDASNRATGIPDRFSGSGSGTDFTLTISSLEPEDFAVYFCQQRANWPPLTFGGGTKVEIK
B10: 7D6 (protein)
chain 1: EVQLQQSGAELVRPGASVKLSCTASGFNIKDTYIHWVKQRPEQGLEWIGRIDPGDGDTEYDPSFQGKATITADTSSNTAYLELSSLTSEDTAVYYCTRFYDYVNYGMDYWGQGTSVTVSS
chain 2: DIQMTQSPASLSASVGETVTITCRASGNIHNYLAWYQQKQGKSPQLLVYNAKTLADGVPSRFSGSGSGTQYSLKINSLQPEDFGSYYCQHFWSTPPWTFGGGTKLEVK
B11: BD55-3716 (protein)
chain 1: QVQLVESGGGVVQPGRSLRLSCAASGFMFSSYAMDWVRQAPGKGLEWVAVISYDGRNKYYADSVKGRFTISRDNSKNTLYLQMNSLRPEDTAVYYCAREDGSLVWFGDLTLDYWGRGTLVTVSS
chain 2: QSVLTQPPSASGTPGQRVTISCSGSSSNIEINAVSWYQQLPGAAPKLLIYNNDQRPSGVPDRFSGSKSGTSASLAISGLQSEDEADYYCAAWDDSLKGVFGGGTKLTVL
B12: BD55-4285 (protein)
chain 1: QVQLVQSGSELKKPGASVKVSCKASENIFTTFAIHWVRQAPGQGLEWMGWINTNTGNPTYAQGFTGRFVFSLDTSVNTAYLQISSLKTEDTAFYYCANSYDIYTYSLDSWGQGTLITVSS
chain 2: EKVLTQSPATLSVSPGERATLSCRASQSVGSDLAWYQQKPGQAPRLLIYGASTRATGIPARFSGSGSGTEFTLTITSLQSEDFAVYYCQQYNNWPLTFGGGTKVEIK

Target: SARS-CoV-2 Omicron BA.1 spike pseudovirus
Assay: pseudovirus neutralization IC50; higher = weaker neutralization
Procedure: (§1)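 Single-round VSV luciferase pseudovirus mixed with antibody dilutions for 1 h and put on Huh-7 cells for about a day; IC50 from the dose curve.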

Point of comparison: B6, “pseudovirus neutralization IC50” value 0.0203 µg/mL. Against it:
- B1 — higher, > 10 µg/mL
- B2 — higher, > 10 µg/mL
- B3 — higher, > 10 µg/mL
- B4 — higher, > 10 µg/mL
- B5 — higher, > 10 µg/mL
- B7 — 310-fold higher, 6.38 µg/mL
- B8 — 12-fold higher, 0.253 µg/mL
- B9 — higher, > 10 µg/mL
- B10 — higher, > 10 µg/mL
- B11 — higher, > 10 µg/mL
- B12 — higher, > 10 µg/mL

Target: SARS-CoV-2 Omicron BA.2 spike pseudovirus
Assay: as above
Procedure: as §1

Point of comparison: B6, “pseudovirus neutralization IC50” value 0.0322 µg/mL. Against it:
- B1 — higher, > 10 µg/mL
- B2 — higher, > 10 µg/mL
- B3 — higher, > 10 µg/mL
- B4 — higher, > 10 µg/mL
- B5 — higher, > 10 µg/mL
- B7 — higher, > 10 µg/mL
- B8 — 5.6-fold higher, 0.179 µg/mL
- B9 — higher, > 10 µg/mL
- B10 — higher, > 10 µg/mL
- B11 — higher, > 10 µg/mL
- B12 — higher, > 10 µg/mL

Target: SARS-CoV-2 Omicron BA.2.75 spike pseudovirus
Assay: as above
Procedure: as §1

Point of comparison: B6, “pseudovirus neutralization IC50” value 0.0321 µg/mL. Against it:
- B1 — higher, > 10 µg/mL
- B2 — higher, > 10 µg/mL
- B3 — higher, > 10 µg/mL
- B4 — higher, > 10 µg/mL
- B5 — higher, > 10 µg/mL
- B7 — higher, > 10 µg/mL
- B8 — 3.2-fold higher, 0.103 µg/mL
- B9 — higher, > 10 µg/mL
- B10 — higher, > 10 µg/mL
- B11 — higher, > 10 µg/mL
- B12 — higher, > 10 µg/mL

Target: SARS-CoV-2 Omicron BA.5 spike pseudovirus
Assay: as above
Procedure: as §1

Point of comparison: B6, “pseudovirus neutralization IC50” value 0.0148 µg/mL. Against it:
- B1 — higher, > 10 µg/mL
- B2 — higher, > 10 µg/mL
- B3 — higher, > 10 µg/mL
- B4 — higher, > 10 µg/mL
- B5 — higher, > 10 µg/mL
- B7 — higher, > 10 µg/mL
- B8 — 38-fold higher, 0.565 µg/mL
- B9 — higher, > 10 µg/mL
- B10 — higher, > 10 µg/mL
- B11 — higher, > 10 µg/mL
- B12 — higher, > 10 µg/mL

Target: SARS-CoV-2 Omicron BQ.1.1 spike pseudovirus
Assay: as above
Procedure: as §1

Point of comparison: B6, “pseudovirus neutralization IC50” value 0.0231 µg/mL. Against it:
- B1 — higher, > 10 µg/mL
- B2 — higher, > 10 µg/mL
- B3 — higher, > 10 µg/mL
- B4 — higher, > 10 µg/mL
- B5 — higher, > 10 µg/mL
- B7 — higher, > 10 µg/mL
- B8 — higher, > 10 µg/mL
- B9 — higher, > 10 µg/mL
- B10 — higher, > 10 µg/mL
- B11 — higher, > 10 µg/mL
- B12 — higher, > 10 µg/mL

Target: SARS-CoV-2 Omicron XBB spike pseudovirus
Assay: as above
Procedure: as §1

Point of comparison: B6, “pseudovirus neutralization IC50” value 0.012 µg/mL. Against it:
- B1 — higher, > 10 µg/mL
- B2 — higher, > 10 µg/mL
- B3 — higher, > 10 µg/mL
- B4 — higher, > 10 µg/mL
- B5 — higher, > 10 µg/mL
- B7 — higher, > 10 µg/mL
- B8 — higher, > 10 µg/mL
- B9 — higher, > 10 µg/mL
- B10 — higher, > 10 µg/mL
- B11 — higher, > 10 µg/mL
- B12 — higher, > 10 µg/mL

Target: SARS-CoV-2 early D614G spike pseudovirus
Assay: as above
Procedure: as §1

Point of comparison: B2, “pseudovirus neutralization IC50” value 0.0098 µg/mL. Against it:
- B1 — 94-fold higher, 0.92 µg/mL
- B3 — higher, > 10 µg/mL
- B4 — 1.6-fold higher, 0.016 µg/mL
- B5 — higher, > 10 µg/mL
- B6 — within 1.5-fold, 0.0068 µg/mL
- B7 — 3.2-fold higher, 0.0314 µg/mL
- B8 — within 1.5-fold, 0.0105 µg/mL
- B9 — higher, > 10 µg/mL
- B10 — higher, > 10 µg/mL
- B11 — 120-fold higher, 1.15 µg/mL
- B12 — 26-fold higher, 0.256 µg/mL
